Measured values: ChEMBL document CHEMBL1828574, “Synthesis and structural studies of pentacycloundecane-based HIV-1 PR inhibitors: a hybrid 2D NMR and docking/QM/MM/MD approach” (Eur J Med Chem, 2011)

Chains of the proteins cited; added tags and fusions are not shown.
UniProt Q72874, entry or part of it Q7K: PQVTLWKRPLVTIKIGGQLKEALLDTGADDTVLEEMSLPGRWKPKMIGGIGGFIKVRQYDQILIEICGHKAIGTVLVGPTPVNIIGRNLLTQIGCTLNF

Target: Human immunodeficiency virus type 1 protease (Human immunodeficiency virus 1, UniProt Q72874, Q7K)
Assay: Inhibition of HIV1 subtype C protease Q7K mutant expressed in Escherichia coli BL21 (DE3) pLysS using Lys-Ala-Arg-Val-Nle-p-nitro-Phe-Glu-Ala-Nle-NH2 as substrate by spectrophotometry

Work on `Cc1cccc(C)c1OCC(=O)N[C@@H](Cc1ccccc1)[C@@H](O)C[C@H](Cc1ccccc1)NC(=O)[C@H](C(C)C)N1CCCNC1=O` [LOPINAVIR] yielded an IC50 of 0.025 µM.
